Biological target: FPM13 (FTN_1118), FPM13-ALFA (Francisella tularensis, UniProt A0Q6Y9)
Assay: fluorescence decrease on thiol re-oxidation to cystine (ex […] nm, em […]-550 nm)
Settings: 10 µM BODIPY-cysteine; TBS; 0.08 mg/mL FPM13-ALFA (Figure 8A legend); TCEP-resin removed

Compound: Cc1cc(C)n2c1C=C1C=CC(CCC(=O)N[C@@H](CS)C(=O)O)=[N+]1[B-]2(F)F
- fluorescence decrease on thiol re-oxidation to cystine (ex 475 nm, em 500-550 nm): the wild-type FPM13 rapidly re-oxidized the cysteine to cystine

Source: PMC13028475, “Discovery and cryoEM structure of FPM13, a periplasmic metalloprotein unique to Francisella” (2026)
